Measurements as given in article PMC3676400, “3-Oxoacyl-ACP Reductase from Schistosoma japonicum: Integrated In Silico-In Vitro Strategy for Discovering Antischistosomal Lead Compounds” (PLoS ONE, 2013).
pKd: −log10 of the molar value. Values after ≈ are worked out from the molar mass of the structure shown.

Chains of the proteins cited; added tags and fusions are not shown. Residues count along the entry.
UniProt Q5DB51, 1-265: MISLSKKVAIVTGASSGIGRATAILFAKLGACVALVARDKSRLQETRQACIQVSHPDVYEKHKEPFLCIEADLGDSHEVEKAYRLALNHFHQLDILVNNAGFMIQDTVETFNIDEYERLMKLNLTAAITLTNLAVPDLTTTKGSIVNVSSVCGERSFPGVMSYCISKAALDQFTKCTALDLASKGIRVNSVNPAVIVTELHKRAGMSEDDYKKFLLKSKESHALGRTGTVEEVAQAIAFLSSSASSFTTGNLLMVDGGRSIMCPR

Assays:
[1] = target: T1, rSjOAR (Schistosoma japonicum, UniProt Q5DB51); experiment: BIAcore assay of binding to immobilized rSjOAR; conditions: for KA (association constant): five concentrations 0.5-10 µM; for pKd: read-out: KD (dissociation constant), five concentrations 0.5-10 µM
Procedure: The binding capacities of small compounds identified by the virtual screen with rSjOAR were assessed using a BIAcore 3000 instrument (BIAcore AB, Uppsala, Sweden). The recombinant His-tag fusion protein SjOAR was immobilized onto an NTA chip. Compounds were injected at a concentration of 10 µM and a flow rate of 40 µl/min in HBS buffer (0.01 M HEPES, 0.15 M NaCl, 3.0 mM EDTA, 0.005% Tween 20, pH 7.4) containing 1‰ DMSO (Dimethyl sulfoxide). Electrical alterations on the sensor chip were monitored as a resonance signal by using the program supplied by the manufacturer. To further obtain kinetic parameters, a series of compound concentrations (0.5 µM, 1 µM, 2 µM, 5 µM and 10 µM) were measured. Data were analyzed by using the software with which the instrument was equipped.

[2] = test system: adult worms; experiment: Inhibition studies on cultured adult worms; conditions: for speed of antischistosomal activity: 40 µg/ml or 80 µg/ml, 2 h or 24 h; for reversibility of effects on worms: data not shown; for mortality rate: primary screening, 25 µg/ml; for LD50 (median lethal dose): secondary screening, at 72 hours
Procedure: (§1) Mice infected with cercariae (400–600 cercariae per mice for juvenile worms and 80–100 cercariae per mice for adult worms) were scarified at 14 days and 35 days post-infection for juvenile worms and adult worms, respectively. The freshly perfused worms were washed with saline and then cultured in RPMI 1640 medium supplemented with 300 µg/ml penicillin, 300 µg/ml streptomycin, 0.25 µg/ml amphotericin and 10% fetal bovine serum. Four of adult worms with good viability were transferred into each well of a 24-well Falcon plate containing 2 ml of the above culture medium. Compounds dissolved in DMSO were added to different final concentrations (for initial screening three concentrations 5 µg/ml, 25 µg/ml and 50 µg/ml were evaluated while for the second screening, five concentrations 5 µg/ml, 10 µg/ml, 20 µg/ml, 40 µg/ml and 80 µg/ml were used). Control worms were treated with an equal volume of carrier DMSO or RPMI 1640 medium, and worms treated with PZQ were also evaluated as a positive control. For each experimental condition, 12 worms evenly distributed in 3 wells were tested.
(§2) The worms were cultured at 37°C in an incubator with 5% CO2. Worm viability, morphological changes and mortality were monitored under an inverted microscope at 2 h, 16 h, 24 h, 48 h and 72 h post-treatment. Parasite death was defined as non-detectable activity for 2 minutes plus morphological and tegumental alterations. Worms with typical lesions were photographed and stored in 2.5% glutaraldehyde in PBS for electron microscope analysis. The median lethal dose (LD50) for each active compound was calculated by SPSS 18.0 software, with a confidence interval of 95%. The inhibition study was initially performed with adult worms, and then the compounds identified as active were also tested on juvenile worms with the similar methods described above.
Schistosome samples were fixed in 2.5% glutaraldehyde in PBS at 4°C for 2 h and then washed with PBS three times. The samples were further fixed in 1% Osmium tetroxide buffer. After ethanol dehydration and critical point drying, samples were mounted on microscope stubs, followed by gold sputtering for 3 min in IB-3 ion-sputtering instrument (Hitachi, Japan). A S-520 SEM (Hitachi, Japan) was utilized with an accelerating voltage of 30 kV for the observation.

[3] = test system: juvenile worms; experiment: Inhibition studies on cultured juvenile worms; conditions: for mortality: 40 µg, worms 14 days post infection
Procedure: as §1, §2

[4] = target: T1, rSjOAR; experiment: Effect of active compounds on rSjOAR enzymatic activity

SMILES: Cc1c(C(=O)NCc2ccc(N3CCC(C)CC3)cc2)cnn1-c1ccc(Cl)cc1
- Rmax (maximum binding capacity) [1]: 131.0
- KA (association constant) [1]: 27300 M⁻¹
- pKd [1]: 4.44
- morphological changes, optical microscopy ([2]; 10 µg/ml, 48 h): extensive blebs
- tegument alterations, scanning electron microscopy ([2]; 10 µg/ml, 48 h): blebs on the tegument were so severe that they fused together
- adult worm mortality ([2]; 40 µg/ml): 75%
- speed of antischistosomal activity [2]: slower
- reversibility of effects on worms [2]: irreversible
- mortality rate [2]: significant mortality rate
- LD50 (median lethal dose) [2]: 18.0 ± 7.6 µg/mL
- LD50 (median lethal dose) ([2]; corresponding molar value): 42.5 ± 17.9 µM
- morphology of juvenile worms [3]: varying degrees of blebs
- mortality ([3]; in 72 h): 100%
- reduction of rSjOAR activity ([4]; 80 µg/ml): 45.71%

SMILES: O=[N+]([O-])c1cc(Cl)ccc1N=Nc1cc(F)cc(F)c1O
- Rmax (maximum binding capacity) [1]: 40.7
- KA (association constant) [1]: 5.41e+07 M⁻¹
- pKd [1]: 7.73
- adult worm mortality ([2]; 40 µg/ml): 100%
- speed of antischistosomal activity [2]: significant activity in a relatively short time
- morphological changes, optical microscopy ([2]; 40 µg/ml, 24 h): lots of thorns were distributed on the tegument
- tegument alterations, scanning electron microscopy ([2]; 40 µg/ml, 24 h): Serious tegument peeling
- reversibility of effects on worms [2]: irreversible
- mortality rate [2]: significant mortality rate
- LD50 (median lethal dose) [2]: 18.5 ± 6.1 µg/mL
- LD50 (median lethal dose) ([2]; corresponding molar value): 59.0 ± 19.4 µM
- morphology of juvenile worms [3]: became short and black
- mortality ([3]; in 48 h): 100%
- reduction of rSjOAR activity ([4]; 25 µg/ml, compared with carrier-treated group): 73%
- IC50 ([4]; in the first 15 min): 21.79 ± 1.33 µg/mL (≈ 69.5 µM)

SMILES: c1ccc2c(CN3CCN(Cc4ccc5c(c4)OCO5)CC3)c[nH]c2c1
- Rmax (maximum binding capacity) [1]: 50.3
- KA (association constant) [1]: 124000 M⁻¹
- pKd [1]: 5.09
- morphological changes, optical microscopy ([2]; 10 µg/ml, 48 h): extensive blebs
- tegument alterations, scanning electron microscopy ([2]; 10 µg/ml, 48 h): blebs on the tegument were so severe that they fused together
- speed of antischistosomal activity [2]: significant activity in a relatively short time
- mortality rate [2]: significant mortality rate
- LD50 (median lethal dose) [2]: 19.7 ± 8.7 µg/mL
- LD50 (median lethal dose) ([2]; corresponding molar value): 56.4 ± 24.9 µM
